Measurements reported in PubChem BioAssay AID504761 (Drosophila RNAi Screening Center, 2011).
In all, the deposit lists about 22,000 reagents; shown is an unselected part of those that have a named target and a result. Of all reagents, 116 (0.52%) were called active. 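Calls depend on retest data that are not deposited; infection was ranked per plate without normalising between plates; the unit of the infection score is not given.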 The numbers tell different reagents against one gene apart. Not all columns of the deposit are shown. Not given: the amount of reagent, the time to read-out.

- Screen: 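Insect host genes that dengue virus relies on to spread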 (primary screen)
- Cells: D.Mel-2 cells from Drosophila
- Reagent: long dsRNA against Drosophila genes
- Treatment: infection with dengue virus type 2; dose and infection time not stated
- Measurement: 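Cells stained for dengue envelope protein and imaged; percent of infected cells per well on duplicate plates, ranked by infection, with stained nuclei counted for cell number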
- Reading the numbers: infection score: higher = more virus-infected cells
- Rule for the call: 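Very low infection ranking in both replicate wells (chance probability at most 0.065), then a retest showing infection dropped 1.5-fold or more at p below 0.05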
- Calls: active = confirmed: knock-down lowers infection; inactive = not picked or not confirmed

target gene | dsRNA no. | infection score, replicate 1 | Call
eIF3j | 1 | 10.1 | inactive
CG1246 | 1 | 19.1 | inactive
Srp68 | 1 | 6.12 | inactive
Srp68 | 2 | 3.06 | inactive
Tasp1 | 1 | 6.98 | inactive
Fgop2 | 1 | 6.28 | inactive
Mob2 | 1 | 4.63 | inactive
Mob2 | 2 | 1.69 | inactive
Mob2 | 3 | 1.4 | inactive
Ttc30 | 1 | 2.64 | inactive
Ttc30 | 2 | 0.9 | inactive
CG17486 | 1 | 11.1 | inactive
CG31781 (retired record) | 1 | 1.97 | inactive
CG31781 (retired record) | 2 | 3.63 | inactive
Psn | 1 | 9.44 | inactive
Cpr49Ab | 1 | 1.82 | inactive
Cpr49Ab | 2 | 4.9 | inactive
CG4763 | 1 | 2.01 | inactive
CG4763 | 2 | 4.84 | inactive
GstD7 | 1 | 1.88 | inactive
GstD7 | 2 | 15.5 | inactive
Msh6 | 1 | 0.88 | inactive

Looked up above:
Entry of Mob2 #1 under “infection score, replicate 1”: 4.63
Under “infection score, replicate 1”, Cpr49Ab #1 is entered as 1.82

More entries:
target gene | dsRNA no. | infection score, replicate 1 | Call
Liprin-gamma | 1 | 7.72 | inactive
CG9962 | 1 | 1.85 | inactive
CG9962 | 2 | 3.98 | inactive
CG8668 | 1 | 7.12 | inactive
CG8668 | 2 | 5.25 | inactive
ProtA | 1 | 1.94 | inactive
Trap1 | 1 | 7.99 | inactive
Poc1 | 1 | 9.42 | inactive
Poc1 | 2 | 17.4 | inactive
CG8237 | 1 | 9.12 | inactive
CG8237 | 2 | 1.52 | inactive
CG31637 | 1 | 1.46 | inactive
CG31637 | 2 | 8.88 | inactive
CG31637 | 3 | 1.64 | inactive
sl | 1 | 3.59 | inactive
sl | 2 | 3.37 | inactive
CG17283 | 1 | 2.07 | inactive
